This is an account of results in publication PMC12738692, “Identification, characterization, and structure-activity relationship of the ASIC3-selective peptide WRPRFa” (Communications Chemistry, 2025).

One assay concerns the target T1, human ASIC3 (acid-sensing ion channel 3) (human) (UniProt Q9UHC3).
T1 sequence: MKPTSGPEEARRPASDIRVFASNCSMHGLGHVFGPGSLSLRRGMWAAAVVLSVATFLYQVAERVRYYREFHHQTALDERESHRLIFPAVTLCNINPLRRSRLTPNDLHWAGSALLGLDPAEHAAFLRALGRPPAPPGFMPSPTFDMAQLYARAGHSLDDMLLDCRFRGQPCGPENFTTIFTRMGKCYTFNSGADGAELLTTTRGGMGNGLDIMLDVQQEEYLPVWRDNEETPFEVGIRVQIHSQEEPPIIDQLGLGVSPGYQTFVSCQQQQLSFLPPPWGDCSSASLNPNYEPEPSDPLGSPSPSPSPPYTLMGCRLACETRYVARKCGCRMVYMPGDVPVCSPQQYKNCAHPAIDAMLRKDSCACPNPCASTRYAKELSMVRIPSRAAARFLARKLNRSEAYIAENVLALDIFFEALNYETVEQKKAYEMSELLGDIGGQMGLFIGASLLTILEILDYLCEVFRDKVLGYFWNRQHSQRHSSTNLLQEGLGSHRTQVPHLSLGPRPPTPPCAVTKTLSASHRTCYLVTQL
Substance RPRF-COOH (peptide) had an I3s/Ipk, 30 µM peptide, pH 6.3, QPatch II of 0.00339. As to RPRF-p-na (peptide), the I3s/Ipk, 30 µM peptide, pH 6.3, QPatch II was 0.387. On the same count and under the same terms, next, RPRFa (peptide): 0.0476.

For another assay, the target named is T1, human ASIC3 (acid-sensing ion channel 3) (human). This is another data set of the same source.
WRPRFa (peptide) came in with an I3s/Ipk after 30 µM WRPRFa for 20 s at pH 8.0 (closed state), manual patch clamp of 0.714.

A further assay deals with ASIC131 concatemeric heterotrimer (ASIC1a-ASIC3-ASIC1a in tandem) (human) (UniProt P78348).
WRPRFa (peptide) came in with an EC50 of I3s/Ipk, escalating WRPRFa before pH 6.3, manual patch clamp, CHO cells above 32.4 µM.

The next assay concerns the target T1, human ASIC3 (acid-sensing ion channel 3) (human). The source holds these as a separate data set.
Regarding WRPRFa (peptide), the EC50 of I3s/Ipk, escalating peptide before pH 6.3, QPatch II was determined as 6.31 µM and the EC50 of I3s/Ipk, escalating peptide before pH 6.3, manual patch clamp stood at 6.22 µM.

The next assay concerns the target human ASIC3 E416Q (human) (UniProt Q9UHC3).
WIPRFa (peptide): the EC50 of I3s/Ipk, escalating peptide before pH 6.3, manual patch clamp is 10.3 µM.

As to WRPRFa (peptide), the EC50 of I3s/Ipk, escalating peptide before pH 6.3, manual patch clamp was 2.47 µM.

Another assay deals with human ASIC3 E78Q (human) (UniProt Q9UHC3).
WIPRFa (peptide) displayed an EC50 of I3s/Ipk, escalating peptide before pH 6.3, manual patch clamp of 1.66 µM. On the same count and under the same terms, next, WRPRFa (peptide): 0.206 µM.

For another assay, the target named is human ASIC3 E378Q (human) (UniProt Q9UHC3).
As to WIPRFa (peptide), the EC50 of I3s/Ipk, escalating peptide before pH 6.3, manual patch clamp is 20.8 µM. Same read-out and setting: with WRPRFa (peptide) the figure was 9.59 µM.

The target in the next assay is T1, human ASIC3 (acid-sensing ion channel 3) (human). The source holds these as a separate data set.
Turning to WRPRFa (peptide), the I3s/Ipk after 30 µM WRPRFa for 10 s on desensitized channels, manual patch clamp came out at 0.113.

The target is the same in a further assay. This is another data set of the same source.
ARPRFa (peptide) gave an I3s/Ipk (geometric mean), 30 µM peptide, pH 6.3, QPatch II of 0.251. Substance ERPRFa (peptide) had an I3s/Ipk (arithmetic mean), 30 µM peptide, pH 6.3, QPatch II of 0.0044. In turn, FRPRFa (peptide) had an I3s/Ipk (geometric mean), 30 µM peptide, pH 6.3, QPatch II of 0.521. The same measure, in the same setting: next, HRPRFa (peptide): 0.166; IRPRFa (peptide): 0.362. With RRPRFa (peptide), the I3s/Ipk (geometric mean), 30 µM peptide, pH 6.3, QPatch II came out at 0.174. The same measure, in the same setting: next, VRPRFa (peptide): 0.157. On the same count and under the same terms, with WAPRFa (peptide) the figure was 0.0844; with WDPRFa (peptide), 0.0166; with WEPRFa (peptide), 0.0432. The same measure, in the same setting: next, WIPRFa (peptide): 0.4; WKPRFa (peptide): 0.583; WMPRFa (peptide): 0.248. Turning to WRARFa (peptide), the I3s/Ipk (geometric mean), 30 µM peptide, pH 6.3, QPatch II was found to be 0.623. On the same count and under the same terms, with WRGRFa (peptide) the figure was 0.237. The same measure, in the same setting: next, WRNRFa (peptide): 0.395. The same measure, in the same setting: with WRPAFa (peptide) the figure was 0.0154. As to WRPDFa (peptide), the I3s/Ipk (geometric mean), 30 µM peptide, pH 6.3, QPatch II was 0.00475. On the same count and under the same terms, with WRPEFa (peptide) the figure was 0.00363; with WRPIFa (peptide), 0.0958.

WRPKFa (peptide): the I3s/Ipk (geometric mean), 30 µM peptide, pH 6.3, QPatch II is 0.167. Still for that read-out and setting: with WRPNFa (peptide) the figure was 0.085. Same read-out and setting: with WRPQFa (peptide) the figure was 0.0361; with WRPRAa (peptide), 0.201; with WRPRF-COOH (peptide), 0.249.

On to WRPRFa (peptide), for which the I3s/Ipk (geometric mean), 30 µM peptide, pH 6.3, QPatch II is 0.806. Turning to WRPRHa (peptide), the I3s/Ipk (geometric mean), 30 µM peptide, pH 6.3, QPatch II was 0.149. As for WRPRIa (peptide), the I3s/Ipk (geometric mean), 30 µM peptide, pH 6.3, QPatch II amounted to 0.619. Same read-out and setting: next, WRPRWa (peptide): 0.693. The same measure, in the same setting: with WRPRYa (peptide) the figure was 0.554; with WRPR{Cha}a (peptide), 0.756; with WRPR{Cpg}a (peptide), 0.66. On the same count and under the same terms, with WRPR{HomoPhe}a (peptide) the figure was 0.727; with WRPR{Phe(F5)}a (peptide), 0.742. In turn, WRPR{Tic}a (peptide) came in with an I3s/Ipk (geometric mean), 30 µM peptide, pH 6.3, QPatch II of 0.421. Still for that read-out and setting: with WRP{ADMA}Fa (peptide) the figure was 0.428; with WRP{Arg(Me)}Fa (peptide), 0.656.

Substance WRP{Cit}Fa (peptide) had an I3s/Ipk (geometric mean), 30 µM peptide, pH 6.3, QPatch II of 0.0228. The same measure, in the same setting: with WRP{HomoArg}Fa (peptide) the figure was 0.744; with WRP{SDMA}Fa (peptide), 0.51; with WRQRFa (peptide), 0.355. On the same count and under the same terms, next, WRSRFa (peptide): 0.633; WR{Tic}RFa (peptide): 0.595. W{Cit}PRFa (peptide) had an I3s/Ipk (geometric mean), 30 µM peptide, pH 6.3, QPatch II of 0.18. W{HomoArg}PRFa (peptide) registered an I3s/Ipk (geometric mean), 30 µM peptide, pH 6.3, QPatch II of 0.722.

For YRPRFa (peptide), the I3s/Ipk (geometric mean), 30 µM peptide, pH 6.3, QPatch II is 0.705. {Cha}RPRFa (peptide) gave an I3s/Ipk (geometric mean), 30 µM peptide, pH 6.3, QPatch II of 0.276. Take {Cpa}RPRFa (peptide): the I3s/Ipk (geometric mean), 30 µM peptide, pH 6.3, QPatch II amounted to 0.346. On the same count and under the same terms, next, {Cpg}RPRFa (peptide): 0.35; {HomoPhe}RPRFa (peptide): 0.451. Regarding {Phe(4-NH2)}RPRFa (peptide), the I3s/Ipk (geometric mean), 30 µM peptide, pH 6.3, QPatch II is 0.436. With {Phe(F5)}RPRFa (peptide), the I3s/Ipk (geometric mean), 30 µM peptide, pH 6.3, QPatch II was determined as 0.213. {Tic}RPRFa (peptide) gave an I3s/Ipk (geometric mean), 30 µM peptide, pH 6.3, QPatch II of 0.335.
